Measurements published in US20230181723A1 (UNIVERSITY OF MARYLAND COLLEGE PARK, published 2023).

Target: T1, HA-tagged HCMV US11 (pEF6-US11, gene synthesised from HCMV AD169 DNA), expressed in HeLa cells (human cytomegalovirus (AD169 DNA as …))
T1 construct: Full-length membrane glycoprotein expressed in transfected HeLa cells and tested in CHAPS lysates; also called HCMV glycoprotein US11; wild-type US11
Test: GST pull-down from HeLa^US11 lysate

B1: GST-FcRn CT (GST fused to the cytoplasmic tail of human FcRn) (other)
chain: MSPILGYWKIKGLVQPTRLLLEYLEEKYEEHLYERDEGDKWRNKKFELGLEFPNLPYYIDGDVKLTQSMAIIRYIADKHNMLGGCPKERAEISMLEGAVLDIRYGVSRIAYSKDFETLKVDFLSKLPEMLKMFEDRLCHKTYLNGDHVTHPDFMLYDALDVVLYMDPMCLDAFPKLVCFKKRIEAIPQIDKYLKSSKYIAWPLQGWQATFGGGDHPPKRRMRSGLPAPWISLRGDDTGVLLPTPGEAQDADLKDVNVIPATA
notes: also called GST-tagged cytoplasmic tail (CT) FcRn; GST-FcRn CT protein
binding result: no binding
